pKd: −log10 of the molar value.
Target: ConC glycan-base trimer (N28-JCBv3-660-665 on the stabilised consensus clade C trimer with DS) (HIV-1 (consensus clade C))
Assay: SPR
Details: domain or fragment

Question: How did the pKd turn out when “soluble construct of CD4 containing the first two domains (sCD4)” was run?
Answer: The pKd was 7.14.

— article PMC10404741
